Measured values as given in patent US20050096250A1, “Cleaning and multifunctional coating composition containing an organosilane quaternary compound and methods of using” (Resource Development L.L.C., priority 2003, published 2005).

Assay: Comparative Bonding Test on kitchen and bath surfaces
Conditions: for Comparative Bonding Test Results, H2O2 Alone: 3% hydrogen peroxide alone

## OO [Example H2O2, hydrogen peroxide]
Baked Enamel (Example 14)
  Comparative Bonding Test Results, H2O2 Alone: Poor (Relatively flat water drops, exhibiting more spread of the water and measuring 50° to 70°)
Chemically Frosted Glass (Example 17)
  Comparative Bonding Test Results, H2O2 Alone: Poor (Relatively flat water drops, exhibiting more spread of the water and measuring 50° to 70°)
Corian (by DuPont) (Example 19)
  Comparative Bonding Test Results, H2O2 Alone: Poor (Relatively flat water drops, exhibiting more spread of the water and measuring 50° to 70°)
Formica Counter Top (Example 18)
  Comparative Bonding Test Results, H2O2 Alone: Poor (Relatively flat water drops, exhibiting more spread of the water and measuring 50° to 70°)
Glass (Example 22)
  Comparative Bonding Test Results, H2O2 Alone: Poor (Relatively flat water drops, exhibiting more spread of the water and measuring 50° to 70°)
Granite Tile (Example 21)
  Comparative Bonding Test Results, H2O2 Alone: Poor (Relatively flat water drops, exhibiting more spread of the water and measuring 50° to 70°)
Marble Tile (Example 20)
  Comparative Bonding Test Results, H2O2 Alone: Poor (Relatively flat water drops, exhibiting more spread of the water and measuring 50° to 70°)
Smooth Ceramic Tile (Example 15)
  Comparative Bonding Test Results, H2O2 Alone: Poor (Relatively flat water drops, exhibiting more spread of the water and measuring 50° to 70°)
Textured Ceramic Tile (Example 16)
  Comparative Bonding Test Results, H2O2 Alone: Poor (Relatively flat water drops, exhibiting more spread of the water and measuring 50° to 70°)
All surfaces of Examples 14-22, after scrubbing
  bonding or durability, H2O2 alone: Poor (Relatively flat water drops, exhibiting more spread of the water and measuring 50° to 70°)
